Consider 23 molecules from patent publication US20250325672A1 (priority 2020, published 2025).

In one assay the target is SARS-CoV-2 protein used in the SPR assay of Example 2 (not named). In words: SPR.
For the molecule CNNPANPVCRFYC (modifications not checked) [BCY16921], the pKD was determined as 7.85.

In turn, CYNQENPVCRFYC (modifications not checked) [BCY16918] registered a pKD of 7.94.

In turn, CMNPDNPVCRFYC (modifications not checked) [BCY16917] returned a pKD of 7.96.

In turn, CSNPENPVCRFYC (modifications not checked) [BCY16914] displayed a pKD of 7.78.

CANHDNPVCRFYC (modifications not checked) [BCY16902] came in with a pKD of 7.62.

As to CENMDNPVCRFYC (modifications not checked) [BCY16907], the pKD is 7.46.

On to CMNTDNPVCRFYC (modifications not checked) [BCY16908], for which the pKD turned out to be 7.47.

Turning to CFNIDNPVCRFYC (modifications not checked) [BCY16912], the pKD came to 7.72.

For the molecule CVNAENPVCRFYC (modifications not checked) [BCY16913], the pKD was determined as 7.77.

In turn, CLNVDNPVCRFYC (modifications not checked) [BCY16909] showed a pKD of 7.58.

Molecule CHNLDNPVCRFYC (modifications not checked) [BCY16920] gave a pKD of 7.69.

The molecule CKNYDNPVCRFYC (modifications not checked) [BCY16904] showed a pKD of 7.24.

Another assay addresses Biotinylated 2019-nCoV (COVID-19) S1 protein (16-685), His, Avitag (SARS-CoV-2), P0DTC2. In words: SPR, Biacore T200, geomean.
CNNPANPVCRFYC (modifications not checked) [BCY16921] gave a Kd of 0.014 µM.

CYNQENPVCRFYC (modifications not checked) [BCY16918] gave a Kd of 0.0113 µM.

Regarding CMNPDNPVCRFYC (modifications not checked) [BCY16917], the Kd was found to be 0.0107 µM.

As for CSNPENPVCRFYC (modifications not checked) [BCY16914], the Kd is 0.0165 µM.

CENMDNPVCRFYC (modifications not checked) [BCY16907] returned a Kd of 0.0344 µM.

With CFNIDNPVCRFYC (modifications not checked) [BCY16912], the Kd is 0.019 µM.

Regarding CVNAENPVCRFYC (modifications not checked) [BCY16913], the Kd was determined as 0.0155 µM.

In turn, CHNLDNPVCRFYC (modifications not checked) [BCY16920] had a Kd of 0.0203 µM.

In turn, CKNYDNPVCRFYC (modifications not checked) [BCY16904] gave a Kd of 0.0582 µM.

The next assay deals with Biotinylated SARS-CoV-2 (COVID-19) S protein RBD, His, Avitag (SARS-CoV-2), P0DTC2. In words: SPR, Biacore T200, geomean.
For the molecule CPFPPGMGTCLLC (modifications not checked) [BCY19539], the Kd stood at 2.08 µM.

In turn, CPYAPGNGTCLLC (modifications not checked) [BCY19534] gave a Kd of 5.23 µM.

With CPYNKGEGTCLLC (modifications not checked) [BCY19547], the equilibrium dissociation constant (Kd) is 9.16 µM.

Regarding CPYNAGTGTCLLC (modifications not checked) [BCY19536], the Kd turned out to be 7.57 µM.

Molecule CPYSPGSGTCLLC (modifications not checked) [BCY19542] came in with a Kd of 1.95 µM.

As to CPYREGTGTCLLC (modifications not checked) [BCY19533], the Kd is 6.51 µM.

Molecule CPWEAGKGTCLLC (modifications not checked) [BCY19544] came in with a Kd of 6.65 µM.

Consider CPFKPGVGTCLLC (modifications not checked) [BCY19548], for which the Kd amounted to 2.99 µM.

Consider CPHMPGSGTCLLC (modifications not checked) [BCY19546], for which the Kd was determined as 3.52 µM.

The molecule CPHQPGFGTCLLC (modifications not checked) [BCY19541] returned a Kd of 2.17 µM.

The molecule CPHPPGRGTCLLC (modifications not checked) [BCY19535] had a Kd of 0.565 µM.
